Anti-infective test results gathered from many reports (values: NIAID ChemDB through PubChem).

Common to all: enzyme or target tests; species: HIV-1; target: Protease; read by: HPLC; read-out: inhibition

Conditions beyond the fields shown may differ between rows. Inhibition is in % at the dose shown (toxicity tests: loss of growth or viability).

O=c1c(O)c(-c2ccc(O)cc2O)oc2cc(O)cc(O)c12 ; dose: 50 µg/mL ; value: 8.8%
Cc1cccc(C)c1OCC(=O)N[C@@H](Cc1ccccc1)[C@H](O)C(=O)N1CSC(C)(C)[C@H]1C(=O)NCc1ccc2c(c1)OCO2 ; dose: 0.05 µM ; value: 27.6%
O=c1c(O)c(-c2ccc(O)cc2)oc2cc(O)cc(O)c12 ; dose: 50 µg/mL ; value: 21%
Cc1cccc(C)c1OCC(=O)N[C@@H](Cc1ccccc1)[C@H](O)C(=O)N1CSC(C)(C)[C@H]1C(=O)NC(C)(C)c1ccccc1 ; dose: 0.05 µM ; value: 72.5%
O=c1cc(-c2ccc(O)cc2)oc2cc(O)c(O)c(O)c12 ; dose: 50 µg/mL ; value: 79.1%
Cc1cccc(C)c1OCC(=O)N[C@@H](Cc1ccccc1)[C@H](O)C(=O)N1CSC(C)(C)[C@H]1C(=O)NCc1ccccn1 ; dose: 0.05 µM ; value: 57.8%
CSCC[C@H](NC(=O)[C@H](C)NC(=O)[C@H](CCC(=O)O)NC(=O)[C@H](C)N)C(=O)N[C@@H](CO)C(=O)N[C@@H](CCC(N)=O)C(=O)O ; strain: BH10 ; dose: 100 µM ; value: <1%
Cc1c(O)cccc1C(=O)N[C@@H](Cc1ccccc1)[C@H](O)C(=O)N1CSC(C)(C)[C@H]1C(=O)NN(C)c1ccccc1 ; dose: 0.05 µM ; value: 12.9%
CC(C)(C)OC(=O)N[C@@H](Cc1ccccc1)[C@H](O)CNC[C@@H](O)[C@H](Cc1ccccc1)NC(=O)C1[C@H](O)CCC1(C)C ; conditions: pH 5.5 ; dose: 10 µM ; value: 100%
NC(=O)C[C@H](NC(=O)CCCCCCCCCCCCCCC(=O)N[C@H](C(=O)N[C@@H](Cc1ccccc1)C(N)=O)C1CCCCC1)C(=O)N[C@@H](Cc1ccccc1)C(=O)O ; dose: 1 µM ; value: 46%
C[C@@H]1O[C@@H](O[C@H]2[C@H](Oc3cc(O)c4c(=O)cc(-c5ccc(O)cc5)oc4c3)O[C@H](CO)[C@@H](O)[C@@H]2O)[C@H](O)[C@H](O)[C@H]1O ; dose: 50 µg/mL ; value: 25.1%
CC[C@H](C)/C=C(C)/C=C/C(=O)Cc1cc(O)c(C)c(O)c1C=O ; dose: 100 µg/mL ; value: 0%
Cc1ccccc1CNC(=O)[C@H]1N(C(=O)[C@@H](O)[C@H](Cc2ccccc2)NC(=O)c2cccc(O)c2C)CSC1(C)C ; dose: 0.05 µM ; value: 96%
C[C@@H]1O[C@@H](Oc2c(-c3cc(O)c(O)c(O)c3)oc3cc(O)cc(O)c3c2=O)[C@H](O)[C@H](O)[C@H]1O ; dose: 50 µg/mL ; value: 31.8%
NC(=O)C[C@H](NC(=O)CCCCCCCCCCCCCCC(=O)NCc1cccc(C(=O)N[C@@H](Cc2ccccc2)C(N)=O)c1)C(=O)N[C@@H](Cc1ccccc1)C(=O)O ; dose: 1 µM ; value: 10%
O=c1c(O)c(-c2ccc(O)c(O)c2)oc2c(O[C@@H]3O[C@H](CO)[C@@H](O)[C@H](O)[C@H]3O)c(O)cc(O)c12 ; dose: 50 µg/mL ; value: 26.5%
CNC(=O)C(O)(C(=O)N[C@@H](Cc1ccccc1)[C@H](O)CNC[C@@H](O)[C@H](Cc1ccccc1)NC(=O)OC(C)(C)C)C(C)(C)C ; conditions: pH 5.5 ; dose: 10 µM ; value: 99%
COc1ccc(-c2cc(=O)c3c(O)cc(OC4OC(COC5OC(C)C(O)C(O)C5O)C(O)C(O)C4O)cc3o2)cc1 ; dose: 50 µg/mL ; value: 0%
NC(=O)C[C@H](NC(=O)CCCCCCCCCCCCCCC(=O)N[C@@H](CC1CCCCC1)C(=O)N[C@@H](Cc1ccccc1)C(N)=O)C(=O)N[C@@H](Cc1ccccc1)C(=O)O ; dose: 1 µM ; value: 31%
Cc1c(O)cccc1C(=O)N[C@@H](Cc1ccccc1)[C@H](O)C(=O)N1CSC(C)(C)[C@H]1C(=O)NC1C2CC3CC(C2)CC1C3 ; dose: 0.05 µM ; value: 5.5%
Cc1ccc(F)cc1CNC(=O)[C@H]1N(C(=O)[C@@H](O)[C@H](Cc2ccccc2)NC(=O)c2cccc(O)c2C)CSC1(C)C ; dose: 0.05 µM ; value: 98%
COC(=O)NC(C(=O)N[C@@H](Cc1ccccc1)[C@H](O)CNC[C@@H](O)[C@H](Cc1ccccc1)NC(=O)OC(C)(C)C)C(C)(C)C ; conditions: pH 5.5 ; dose: 10 µM ; value: 28%
COC(=O)c1ccc(CNC(=O)[C@H]2N(C(=O)[C@@H](O)[C@H](Cc3ccccc3)NC(=O)COc3c(C)cccc3C)CSC2(C)C)cc1 ; dose: 0.05 µM ; value: 28.6%
O=C(O[C@@H]1O[C@@H]2COC(=O)c3cc(O)c(O)c(O)c3-c3c(cc(O)c(O)c3O)C(=O)O[C@H]([C@H]1O)[C@@H]2O)c1cc(O)c(O)c(O)c1 ; dose: 50 µg/mL ; value: 100%